Our source for the Kd, koff and kon values is patent US20240270826A1 (NATIONAL RESEARCH COUNCIL OF CANADA, published 2024).

Holding throughout (assay): SPR, VHH over immobilised S
For test [1], the target named is T1, Human SARS-CoV-2 Alpha (B.1.1.7) S (SARS-CoV-2 (Alpha, B.1.1.7)).
The target of test [2] is T2, Human SARS-CoV-2 Beta (B.1.351) S (SARS-CoV-2 (Beta, B.1.351)).
In test [3] the target is T1, Human SARS-CoV-2 Alpha (B.1.1.7) S. The source holds these as a separate data set.
Test [4] concerns the target T2, Human SARS-CoV-2 Beta (B.1.351) S. The source holds these as a separate data set.

Where two headings read alike, the source gives them in different places.

B1: NRCoV2-03 VHH (VHH)
VHH: EVQLVSSGGGLVQAGGSLRLSCTASGITFSYYAMGWYRQAPGQPRELVASMSNMDSTIYADSVKGRFTISRDNAKTTIYLQMNNLKPEDTAVYFCNIYGPTYSTRRNEYWGQGTQVTVSS
Regarding B1, the Kd in test [1] came out at 1.49 nM; in test [2], 4.08 nM; in test [3] it was 1.49 nM; in test [4], 4.08 nM. Further, the dissociation rate constant (koff) in test [3] was 0.000154 s⁻¹; in test [4], 0.000226 s⁻¹. The kon worked out at 103000 M⁻¹ s⁻¹ in test [3] and 55400 M⁻¹ s⁻¹ in test [4].

B2: NRCoV2-MRed22 VHH (VHH)
VHH: EVQLVESGGGLVQPGGSLRLSCAASGSVFASNAMGWYRQAPGKQRELVATISSRGSTNYADSVKGRFTISRDNAKNTVYLQMNSLGPEDTAVYYCNAREFTGFDYWGQGTQVTVSS
Consider B2, for which binding in test [1] was characterised by a dissociation constant (Kd) of 0.25 nM. In test [3], this molecule showed a Kd of 0.246 nM, a koff of 0.00022 s⁻¹ and a kon of 896000 M⁻¹ s⁻¹.

B3: NRCoV2-SR02 VHH (VHH)
VHH: EVQLVDSGGGLVQAGGSLRLSCTASEFTLNYYSIGWFRQSPGKEREGVSCIRYSGGGIDYADSVKGRFTISRDNAKNTVYLTMNSLKPEDTAVYYCAADRLYSRACPTAGGRNYWGQGTQVTVSS
As for B3, in test [3], binding was put at a Kd of 0.0559 nM, the koff was determined as 0.000254 s⁻¹ and the kon was 4.54e+06 M⁻¹ s⁻¹. In test [4], this molecule had a Kd of 0.15 nM, a koff of 0.000628 s⁻¹ and a kon of 4.19e+06 M⁻¹ s⁻¹.

B4: NRCoV2-14 VHH (VHH)
VHH: EVQLVSSGGGLVQAGGSLRLSCEASGTTFSHYAVGWYRQAPGKQREWVASISVFGSTTYGGSVAGRFTISRDNDKNTVDLQMNSLKPEDTAVYYCHAVNADIGGDYWGQGTQVTVSS
B4 had a Kd in test [1] of 2.44 nM. Also, in test [3], the Kd was determined as 2.44 nM, the koff was determined as 0.000917 s⁻¹ and the on-rate constant (kon) is 375000 M⁻¹ s⁻¹.

B5: NRCoV2-06 VHH (VHH)
VHH: EVQLVQSGGGLVQAGESLRLSCAASVSTFSSYAMGWYRQAPGKQRELVASIGFVGATYYIDSVKGRFTISRDNAKKTAYLQMNDLKPDDTAVYYCNARHYGGSEYWGQGTQVTVSS
As for B5, the Kd in test [1] worked out at 229 nM; in test [2], 248 nM; in test [3], 229 nM; in test [4], 248 nM. Also, the koff worked out at 0.00468 s⁻¹ in test [3] and 0.00614 s⁻¹ in test [4]. Moreover, the kon in test [4] amounted to 24800 M⁻¹ s⁻¹.

B6: NRCoV2-02 VHH (VHH)
VHH: EVQLVESGGGLVQAGGSLRLSCAASGFTFSNYAMNWVRQAPGKGLEWVSGISGRGDDTRYADSVKGRFTISRDNAKNTLFLQMRSLRPEDTGVYRCTKGPDLYYFGSGYSDRGQGTQVTVSS
For the molecule B6, in test [1], binding was put at a Kd of 13.6 nM. In test [3], this molecule gave a dissociation constant (Kd) of 13.6 nM, a koff of 0.0222 s⁻¹ and a kon of 1.64e+06 M⁻¹ s⁻¹.

B7: NRCoV2-05 VHH (VHH)
VHH: EVKLVQSGGGLVQPGGSLRLSCAASGFIFSNYAMNWVRQAPGKGLEWVSGINSGGGDTRYADSVKGRFTVSRDNAKNTLYLQMNSLKPEDTGVYYCSKGPVSSYYGSGYDYRGQGTQVTVSS
Turning to B7, binding in test [1] was put at a Kd of 11.4 nM. Besides, in test [3], the Kd came out at 11.4 nM, the koff came to 0.0261 s⁻¹ and the kon was determined as 2.28e+06 M⁻¹ s⁻¹.

B8: NRCoV2-11 VHH (VHH)
VHH: EVQLVSSGGGLVQPGGSLRLSCAASGSSLDSYSVSWFRQAPGKEREWISFISRYYSSTYYTDSVKGRFTTSRDGDQKTVHLQMNSLKPEDTAVYYCAARSRDFSSPFSATDTYTSWGQGTQVTVSS
On to B8, for which the Kd in test [1] is 0.017 nM; in test [2], 0.023 nM; in test [3] it was 0.0171 nM; in test [4], 0.0227 nM. Moreover, the values for the koff in test [3] and in test [4] were 1.59e-05 s⁻¹ and 1.72e-05 s⁻¹, respectively. Also, the kon in test [3] was found to be 928000 M⁻¹ s⁻¹; in test [4], 757000 M⁻¹ s⁻¹.

B9: NRCoV2-17 VHH (VHH)
VHH: EVQLQQSGGGLVQTGGSLRLSCAAAGSPFSQLAMSWYRQISGKERAWVASISPTGNRSYSKIAKGRFTISRDNAKNTVTLQMTSLKPEDTAAYICQAANVNGGDYWGQGTQVTVSS
In the case of B9, the Kd is 0.13 nM in test [1], 5.1 nM in test [2], 0.125 nM in test [3] and 5.14 nM in test [4]. Further, the results for the off-rate (koff) in test [3] and in test [4] were 7.64e-05 s⁻¹ and 0.00588 s⁻¹, respectively. The kon in test [4] came out at 1.14e+06 M⁻¹ s⁻¹.

B10: NRCoV2-S2G4 VHH (VHH)
VHH: QVQLVQSGGGLVQAGGSLTLSCAPSGSTFSGYATNWYRQAPGKQRELVATISSDGDKNYADSVKGRFTISRDNAKNTVYLQMNSLKPEDTAVYYCNKHWWTGDWWGQGTQVTVSS
Take B10: the Kd in test [1] was found to be 0.19 nM. In test [3], this molecule came in with a Kd of 0.187 nM, a koff of 0.000292 s⁻¹ and a kon of 1.56e+06 M⁻¹ s⁻¹.

B11: NRCoV2-1d VHH (VHH)
VHH: EVQLVESGGGSVQPGGSLRLSCAASGSTLDYYAIGWFRQAPGKEREWVSSVSSSDGNTLYADSVKGRFTISRDNAKNTVYLQMNSLKAEDTAVYVCAADYSMRPFAVGRWHRDYEYWGQGTQVTVSS
As to B11, the Kd in test [1] was found to be 0.91 nM; in test [2] it was 1.2 nM; in test [3], 0.907 nM; in test [4], 1.18 nM. Moreover, the koff in test [3] stood at 0.00102 s⁻¹; in test [4] it was 0.000956 s⁻¹. Besides, the association rate constant (kon) in test [3] came out at 1.13e+06 M⁻¹ s⁻¹; in test [4] it was 812000 M⁻¹ s⁻¹.

B12: NRCoV2-MRed04 VHH (VHH)
VHH: EVQLVESGGGLVQPGRSLRLSCAASGNSFSISTMGWFRQAPGKERELVASIWSDTTTSYADSVKGRFTISTDNTRTKVYLQMSSLNPEDTAVYYCAADRGFVVRGQYDYWGQGTQVTVSS
On to B12, for which the Kd worked out at 0.91 nM in test [1], 1.07 nM in test [2], 0.909 nM in test [3] and 1.07 nM in test [4]. Besides, the off-rate constant (koff) in test [3] stood at 0.00122 s⁻¹; in test [4], 0.00123 s⁻¹. Further, the kon in test [3] amounted to 1.34e+06 M⁻¹ s⁻¹; in test [4], 1.14e+06 M⁻¹ s⁻¹.

B13: NRCoV2-07 VHH (VHH)
VHH: QVQLVQSGGGLVQPGGSLRLSCAASGVTLDYYAIGWFRQAPGKEREAVSCISSNGRRNHYVASVRGRFTISRDNAKSTVYLQMNSLKPEDTAVYYCAAVQDVHGDNYYCTSPNEYNVWGQGTQVTVSS
As for B13, the Kd in test [1] turned out to be 1.1 nM; in test [2] it was 1.1 nM; in test [3], 1.12 nM; in test [4] it was 1.05 nM. Moreover, the koff in test [3] was 0.000378 s⁻¹; in test [4], 0.000321 s⁻¹. In addition, the kon in test [3] is 339000 M⁻¹ s⁻¹; in test [4] it was 305000 M⁻¹ s⁻¹.

B14: NRCoV2-18 VHH (VHH)
VHH: EVQLVESGGGLVQAGGSLRLSCVASGITISGYNMAWWRQTRGKQTERVAFINSGGSTTYSDSVKGRFTISRDNGKNTAYLQMNSLNAEDTADYFCSLHTSHDYWGQGTQVTVSS
Turning to B14, the dissociation constant Kd in test [1] is 0.35 nM; in test [2], 0.37 nM; in test [3] it was 0.353 nM; in test [4] it was 0.365 nM. Further, the koff in test [3] was 9.79e-05 s⁻¹; in test [4] it was 0.000101 s⁻¹. Also, the kon in test [3] was 278000 M⁻¹ s⁻¹; in test [4] it was 276000 M⁻¹ s⁻¹.

B15: NRCoV2-15 VHH (VHH)
VHH: EVQLVSSGGGLVEAGGSLRLSCIASGSTSGRNTMGWFRQAPGKQREWVAIVSTSGATNYAGSVKGRFTLSRDNAKNAVYLQMNNLKPEDTAVYYCYAAYGGGGDYWGQGTQVTVSS
Take B15: the Kd in test [1] was 0.31 nM; in test [2] it was 22.2 nM; in test [3], 0.305 nM; in test [4], 22.2 nM. The koff in test [3] worked out at 0.000194 s⁻¹; in test [4] it was 0.00328 s⁻¹. The kon in test [3] was found to be 637000 M⁻¹ s⁻¹; in test [4], 148000 M⁻¹ s⁻¹.

B16: NRCoV2-04 VHH (VHH)
VHH: AVQLVDSGGGLVQPGGSLRLSCAASGSPFSNVVMAWYRQAPGKQRERVAFISGGGIADYIMSVKGRFTISRDNAKNTVYLQMNSLKPEDTAVYYCWSSYESTWGQGTQVTVSS
Turning to B16, the affinity in test [1], expressed as Kd, was 11.7 nM. In test [3], this molecule showed an equilibrium dissociation constant (Kd) of 11.7 nM, a koff of 0.0196 s⁻¹ and a kon of 1.67e+06 M⁻¹ s⁻¹.

B17: NRCoV2-10 VHH (VHH)
VHH: QLQLQESGGGLVQPGGSLTLSCAASGNTFSRSNMHWYRQAPGAQREWVAAISSRGISTYAYSAKGRFTISRDNAKNTVSLQMNSLKPEDTAVYYCYAADDLGDYWGQGTQVTVSS
Consider B17, for which the Kd in test [1] amounted to 0.21 nM; in test [2], 9.73 nM; in test [3], 0.21 nM; in test [4], 9.73 nM. The koff in test [3] is 0.000102 s⁻¹; in test [4], 0.00262 s⁻¹. Besides, the association rate constant (kon) in test [3] was determined as 484000 M⁻¹ s⁻¹; in test [4] it was 270000 M⁻¹ s⁻¹.

B18: NRCoV2-20 VHH (VHH)
VHH: EVQLQQSGGGLVQPGGSLRLSCAASGRTFSNYVVGWFRQAPQAPGKDHEFVAVISGSDTETYYADSVKGRFTISRDNAKNTVYLQMNSLKPEDTAVYYCAADRGMSYYYTRATEYYYWGQGTQVTVSS
Take B18: the Kd in test [1] stood at 4.97 nM; in test [2] it was 5.47 nM; in test [3], 4.97 nM; in test [4] it was 5.47 nM. Besides, the kon in test [3] was 2.48e+06 M⁻¹ s⁻¹; in test [4] it was 2.08e+06 M⁻¹ s⁻¹. Also, the koff in test [4] was determined as 0.0114 s⁻¹.

B19: NRCoV2-SR01 VHH (VHH)
VHH: EVQLVQSGGGSVQAGGSLRLSCVASGFTFDNYAIGWFRQAPGKEREGVSCISGNGGVTIYADSVKGRFTISRDNAKNLVYLQMNSLKPEDTAVYYCAATGIRSTWSVYGCSRLAGPYDYWGQGTQVTVSS
For the molecule B19, the Kd in test [1] came to 0.59 nM; in test [2], 0.2 nM; in test [3], 0.591 nM; in test [4] it was 0.202 nM. For the same molecule, the koff in test [3] came to 0.000594 s⁻¹; in test [4], 0.000221 s⁻¹. Besides, the results for the kon in test [3] and in test [4] were 1.01e+06 M⁻¹ s⁻¹ and 1.09e+06 M⁻¹ s⁻¹, respectively.
